Measurements published in paper PMC3335879, “Selective Inhibitors of Protozoan Protein N-myristoyltransferases as Starting Points for Tropical Disease Medicinal Chemistry Programs” (PLoS Neglected Tropical Diseases, 2012).

Tested on: L. donovani NMT
Type: biochemical
Settings: selectivity for Ldon NMT over Pfal NMT derived from IC50 values
Experimental: Recombinant P. falciparum (Swiss-Prot Q81LW6) and L. donovani NMTs (EMBL accession number FN555136) were produced at the University of York, using established protocols. An assay format based on scintillation proximity technology to monitor enzyme activity was used as previously described, [30].
The Pfizer Global Diverse Representative Set consisting of 150,000 compounds was screened at 20 µM final assay concentration. Assay plates were prepared by dispensing 0.1 µL of compound dissolved in DMSO using the Vario system (Cybio) into white 384-well plates (Greiner Bio-One).
The reaction was initiated by adding 10 µL of the substrate mixture to each well containing the pre-incubated enzyme/compound mixture, and allowed to proceed at RT for 80 min. The reaction was quenched by the addition 20 µl of stop solution to each well. Stop solution consisted of 0.75 M MgCl2 (Sigma), 0.1 M phosphoric acid (Sigma) and 1 mg/ml of streptavidin-coated polystyrene SPA beads (Perkin-Elmer). Plates were sealed using topseals (Perkin-Elmer) and left overnight to allow the bead solution to settle. Radioactive counts were measured with an integration time of 300 sec per plate using the Leadseeker Generation 4 plate reader (GE Healthcare). […] The data were analysed using Pfizer SIGHTS software and visualised using Spotfire software (TIBCO).

Structure (SMILES) | Ldon/Pfal Sel
c1cncc(CCNCc2cccc(-c3cccc(CN4CCc5ncsc5C4)c3)c2)c1 [PF-00075634] | >505
NC(CC(=O)N1CC(CO)C(c2ccc(Cl)cc2)C1)Cc1ccc(Cl)cc1 (centres unmarked) [PF-03402623] | 770
